Measured values from several laboratories, pooled; numbers as filed in NIAID ChemDB.

Shared fields: growth or infection tests; agent: HIV-1; measure: EC90

Neighbouring rows are from separate reports.

COC(=O)[C@@H](C)NP(=O)(OC[C@@H]1OC[C@H](n2cc(C)c(=O)[nH]c2=O)O1)Oc1ccccc1 ; strain or isolate: LAI ; mutations: RT-M184V ; cell line: PBMC ; method: RT activity ; value: 38.6 µM
Nc1nc(NC2CC2)c2ncn([C@H]3C=C[C@@H](CO)C3)c2n1 ; strain or isolate: XM-T69SSS ; mutations: RT-T69SSS L210W T215Y ; cell line: MT-4 ; method: p24 ; value: 32 µM
CC1(C)CC(=O)C(S(=O)(=O)N(CC2CCCC2)C[C@@H](O)CN(CCc2ccccc2)C(=O)c2ccccc2)C(=O)S1 ; strain or isolate: IIIB ; cell line: CEM ; method: p24 ; value: 1 µM
CN(C)c1ncnc2c1ncn2[C@H]1CC[C@@H](CO)O1 ; strain or isolate: GB8 ; cell line: JM ; method: p24 ; value: 40 µM
Cc1cn([C@H]2C=C[C@@H](CO)O2)c(=O)[nH]c1=O ; strain or isolate: XM-M184V ; mutations: RT-M184V ; cell line: MT-4 ; method: p24 ; value: 0.3 µM
COc1ccc(S(=O)(=O)N(CC(C)C)C[C@@H](O)CCN(CC2CCCC2)S(=O)(=O)c2nc3ccccc3o2)cc1 ; strain or isolate: IIIB ; cell line: CEM ; method: p24 ; value: 1 µM
COc1ccnc2[nH]cc(C(=O)C(=O)N3C4CC3CN(C(=O)c3ccccc3)C4)c12 ; strain or isolate: PVO ; cell line: TZM-bl ; method: luciferase ; value: >250 µM
Nc1cccc(S(=O)(=O)N(CC2CCCC2)C[C@@H](O)CN(CCc2ccccc2)C(=O)c2cccnc2)c1 ; strain or isolate: IIIB ; cell line: CEM ; method: p24 ; value: 1 µM
O=C1Nc2ccc(F)c(F)c2[C@@](C#CC2CC2)(C(F)(F)F)N1 ; mutations: RT-K103N ; value: 0.011 µM
COc1ccc(S(=O)(=O)N(CC(C)C)C[C@@H](O)CCN(CC2CCCC2)S(=O)(=O)c2ccncc2)cc1 ; strain or isolate: IIIB ; cell line: CEM ; method: p24 ; value: 1 µM
O=C(O)c1cc(-n2cccc2)ccc1Cl ; strain or isolate: BCF02 R5 GROUP O ; cell line: PBMC/5.25M7 ; method: luciferase / cell fusion ; value: 88.74 µM
CCN(CC)c1ncnc2c1ncn2[C@H]1CC[C@@H](CO)O1 ; strain or isolate: RF ; cell line: C8166 ; method: cytopathic effect / MTT / p24 ; value: 100 µM
COc1ccnc2[nH]cc(C(=O)C(=O)N3C4CCCC3CN(C(=O)c3ccccc3)C4)c12 ; strain or isolate: QH0692 ; cell line: TZM-bl ; method: luciferase ; value: 57 µM
O=C1Nc2ccc(Cl)cc2[C@@](/C=C/C2CC2)(C(F)(F)F)N1 ; mutations: RT-L100I ; value: 0.02 µM

A second listing of 2 rows from above:

compound | strain or isolate | mutations | cell line | method | value
Nc1nc(NC2CC2)c2ncn([C@H]3C=C[C@@H](CO)C3)c2n1 | XM-T69SSS | RT-T69SSS L210W T215Y | MT-4 | p24 | 32 µM
Cc1cn([C@H]2C=C[C@@H](CO)O2)c(=O)[nH]c1=O | XM-M184V | RT-M184V | MT-4 | p24 | 0.3 µM

ECn: concentration that inhibits the pathogen or its effect by n%.